PubChem BioAssay AID1259414 | Drosophila RNAi Screening Center – 2018

- Screen: 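Genome-wide screen for host control of endosymbiont load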 (primary screen)
- System: Drosophila JW18 cells infected with Wolbachia
- Reagent: long dsRNA against Drosophila genes, 0.25 µg dsRNA per well of a 384-well plate
- Time to read-out: 5 days
- Conditions: cells persistently infected with Wolbachia before knock-down; no added drug
- Read-out: 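Imaged fluorescence in situ signal for Wolbachia 23S rRNA per DAPI-counted host cell, given as a robust z-score within each plate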
- Reading the numbers: Wolbachia per cell robust z: higher = more Wolbachia per host cell than the plate typical
- Hit rule: 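Active if absolute robust z reaches 1.5 in two or more of three replicates, leaving out multi- or no-target dsRNAs, genes unexpressed in JW18 and A1 wells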
The screen tested about 24,000 reagents; shown is a random part of those that have a named target and a result. Of all reagents, about 1,210 (5%) were called active. 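Inactive calls also include excluded dsRNAs with several or no targets, genes unexpressed in JW18, and well A1, regardless of score.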 A plus sign joins genes that one reagent is predicted to hit.

target gene	PubChem SID	Wolbachia per cell robust z, rep 1	Wolbachia per cell robust z, rep 2	Wolbachia per cell robust z, rep 3	Outcome
Obp57c	SID104186176	-3.54	-4.24	-1.16	inactive
metro	SID104186133	0.0359	1.44	-1.36	inactive
metro	SID104186517	-0.000792	-0.8	-0.247	inactive
metro	SID104205880	0.322	-0.135	0.0143	inactive
Inx7	SID104198576	0.999	1.67	0.584	inactive
Inx7	SID104203035	-0.815	0.376	-0.0574	inactive
Inx7	SID104216560	-0.00518	0.398	-0.427	inactive
Sap130	SID104189472	-1.5	1.82	-0.00993	inactive
Sap130	SID104206623	-2.09	1.15	2	inactive
CG12209	SID104185911	-0.977	-0.731	-3.53	inactive
Mal-A2	SID104187252	-0.24	-5.38	0.672	inactive
CG9920	SID104196370	-0.393	-0.945	-0.351	inactive
ouib	SID104194168	0.458	0.0265	-0.222	inactive
Set8	SID104195265	-2.7	0.129	-0.0451	inactive
Set8	SID104205662	0.275	0.701	-4.56	inactive
CG14075	SID104189872	0.218	-0.815	0.981	inactive
Fak	SID104187218	0.534	-0.673	1.01	inactive
Fak	SID104205170	0.223	0.772	2.7	inactive
l(3)87Df	SID104196774	-0.101	0.457	-5.65	inactive
Tom70	SID104182782	-0.245	0.347	-0.307	inactive
CG10208	SID104194003	-0.104	-0.701	-0.71	inactive
EbpII	SID104184429	-1.7	-1.83	-0.611	inactive
EbpII	SID104201938	0.166	0.245	0.512	inactive
EbpII	SID104208101	-1.13	0.141	-0.415	inactive
twe	SID104183420	-0.0372	-0.243	0.621	inactive
twe	SID104205653	0.422	0.288	0.246	inactive
CG32073	SID104188879	0.12	-0.681	0.81	inactive
CG32073	SID104189686	-1.17	-0.403	-0.629	inactive
CG14380	SID104194632	1.52	0.348	-0.437	inactive
pho	SID104197011	-1.18	-2.26	0.679	inactive
pho	SID104215198	0.351	-1.14	-0.525	inactive
ras	SID104198617	0.356	0.559	0.299	inactive
ras	SID104205681	-0.2	-0.902	0.142	inactive
Syt4	SID104192398	-0.138	0.825	-0.123	inactive
CG3253	SID104184142	0.0482	-0.62	-0.117	inactive
CG3253	SID104207902	1.44	0.919	0.495	inactive
CG15539	SID104194867	-0.528	-0.128	0.0504	inactive
Rai1	SID104199949	-2.01	0.0334	0.582	inactive
Rai1	SID104207266	0.32	0.445	0.441	inactive
CG7248	SID104190580	0.521	0.419	0.69	inactive
CG30289	SID104183662	-1.13	-0.654	-0.168	inactive
BomBc3	SID104195665	-0.242	-1.05	-0.862	inactive
BomBc3	SID104208047	-1.03	-0.246	-0.211	inactive
Hrs	SID104180341	-0.187	0.0944	0.0238	inactive
Hrs	SID104206285	0.85	-0.00125	-0.119	inactive
PGRP-SC1a	SID104186274	-0.329	-0.275	0.0577	inactive
CG34185	SID104216270	1.1	0.378	-3.8	inactive
CG11608	SID104194126	-4.43	-0.0692	-0.712	inactive
CG31077	SID104193597	0.354	0.0544	-0.548	inactive
CG31077	SID104202943	-0.461	1.76	-0.504	inactive
tomb + Cap-D3	SID104182139	0.227	0.629	0.559	inactive
tomb + Cap-D3	SID104206395	-5.26	-1.07	-0.34	inactive
Nipsnap	SID104199961	-0.212	0.198	0.897	inactive
mRpL13	SID104181868	-0.099	0.629	-0.17	inactive
mRpL13	SID104208611	1.06	-0.634	0.482	inactive
CG42762	SID104218877	-1.09	0.353	0.295	inactive
t	SID104197607	0.118	0.0924	-2.04	inactive
t	SID104208004	-0.533	-0.298	0.287	inactive
CG13083	SID104181979	0.521	1.36	1.74	inactive
CG13083	SID104206968	-0.22	0.0865	-0.296	inactive
Cdk5	SID104187151	0.0145	0.944	-8.87	inactive
Cdk5	SID104219076	0.0371	0.168	-0.665	inactive
Acsx4	SID104194103	0.57	-5.76	0.453	inactive
Acsx4	SID104206190	0.217	-7.89	0.0668	inactive
mRpS24 + TBC1d7	SID104194403	1.03	0.699	0.287	inactive
CG13871	SID104186222	-1.48	0.403	0.407	inactive
CG13871	SID104206523	-0.216	1.57	1.05	inactive
Acp29AB	SID104181649	-0.471	-1.11	0.618	inactive
Acp29AB	SID104218246	-0.187	0.214	0.179	inactive
